Target: Nicotinic acetylcholine receptor alpha1/beta1/epsilon/delta (Mus musculus, UniProt P04756+P09690+P02716+P20782)
Experiment: Antagonist activity at mouse alpha1beta1deltaepsilon nACh receptor expressed in Xenopus oocyte assessed as inhibition of acetylcholine-induced response at -70 mV holding potential by voltage-clamp based electrophysiological assay

The chains behind the UniProt entries cited, without tags or fusion partners. Residues count along the entry.
UniProt P04756, 21-457 limits assumed: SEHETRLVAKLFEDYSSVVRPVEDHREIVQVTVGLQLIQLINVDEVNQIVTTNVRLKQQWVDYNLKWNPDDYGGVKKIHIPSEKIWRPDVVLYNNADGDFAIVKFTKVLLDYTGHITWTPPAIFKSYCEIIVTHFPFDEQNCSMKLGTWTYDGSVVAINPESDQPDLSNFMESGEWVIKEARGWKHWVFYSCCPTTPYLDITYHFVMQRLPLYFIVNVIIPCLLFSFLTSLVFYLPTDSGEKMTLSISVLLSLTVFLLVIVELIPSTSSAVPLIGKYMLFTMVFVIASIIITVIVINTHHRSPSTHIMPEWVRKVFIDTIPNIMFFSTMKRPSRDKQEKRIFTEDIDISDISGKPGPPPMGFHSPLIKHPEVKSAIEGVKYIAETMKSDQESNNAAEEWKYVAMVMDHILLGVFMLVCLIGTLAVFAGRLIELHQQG
UniProt P09690, 24-501 limits assumed: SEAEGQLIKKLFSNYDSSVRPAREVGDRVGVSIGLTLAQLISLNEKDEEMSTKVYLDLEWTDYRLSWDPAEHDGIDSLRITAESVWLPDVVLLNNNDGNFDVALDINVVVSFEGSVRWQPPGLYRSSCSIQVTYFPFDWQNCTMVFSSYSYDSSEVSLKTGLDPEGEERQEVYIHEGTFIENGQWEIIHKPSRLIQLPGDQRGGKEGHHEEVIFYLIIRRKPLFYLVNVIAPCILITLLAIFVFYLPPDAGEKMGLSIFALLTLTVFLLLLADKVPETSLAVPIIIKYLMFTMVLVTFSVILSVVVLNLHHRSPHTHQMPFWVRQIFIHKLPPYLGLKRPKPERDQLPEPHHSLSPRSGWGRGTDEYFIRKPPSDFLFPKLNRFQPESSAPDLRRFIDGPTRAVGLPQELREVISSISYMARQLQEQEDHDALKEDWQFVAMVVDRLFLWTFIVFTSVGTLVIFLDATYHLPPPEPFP
UniProt P02716, 25-520 limits assumed: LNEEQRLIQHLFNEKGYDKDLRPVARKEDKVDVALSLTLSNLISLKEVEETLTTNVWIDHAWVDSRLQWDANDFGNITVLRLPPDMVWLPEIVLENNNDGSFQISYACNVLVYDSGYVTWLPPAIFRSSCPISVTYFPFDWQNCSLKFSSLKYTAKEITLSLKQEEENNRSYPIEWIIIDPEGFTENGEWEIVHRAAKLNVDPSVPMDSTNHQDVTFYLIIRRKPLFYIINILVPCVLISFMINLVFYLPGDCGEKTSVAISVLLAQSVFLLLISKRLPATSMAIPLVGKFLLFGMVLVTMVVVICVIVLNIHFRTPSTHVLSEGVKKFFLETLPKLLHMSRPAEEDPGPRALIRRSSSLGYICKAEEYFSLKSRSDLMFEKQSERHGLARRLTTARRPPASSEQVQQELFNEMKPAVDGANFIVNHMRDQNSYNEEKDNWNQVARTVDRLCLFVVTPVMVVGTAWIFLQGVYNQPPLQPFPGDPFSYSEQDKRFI
UniProt P20782, 21-493 limits assumed: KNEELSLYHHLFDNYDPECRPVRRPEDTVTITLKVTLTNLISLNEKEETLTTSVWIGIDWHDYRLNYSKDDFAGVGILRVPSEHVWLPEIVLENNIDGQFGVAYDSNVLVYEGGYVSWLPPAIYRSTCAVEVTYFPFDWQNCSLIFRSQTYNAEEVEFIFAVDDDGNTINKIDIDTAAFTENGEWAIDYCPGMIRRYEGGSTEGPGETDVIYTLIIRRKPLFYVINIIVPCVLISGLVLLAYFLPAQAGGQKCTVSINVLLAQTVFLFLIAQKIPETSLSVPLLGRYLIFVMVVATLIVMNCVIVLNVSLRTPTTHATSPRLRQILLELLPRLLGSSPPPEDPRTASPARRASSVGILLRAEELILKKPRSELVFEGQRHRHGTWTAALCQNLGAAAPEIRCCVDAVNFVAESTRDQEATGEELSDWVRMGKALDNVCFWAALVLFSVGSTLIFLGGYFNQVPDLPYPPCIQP

Going from `CC[C@H](C)[C@@H]1NC(=O)[C@H](C)NC(=O)[C@H](CCCNC(=N)N)NC(=O)[C@@H](NC(=O)[C@H](Cc2ccc(O)cc2)NC(=O)[C@H](CCCNC(=N)N)NC(=O)[C@H](CCCNC(=N)N)NC(=O)[C@H](CCCNC(=N)N)NC(=O)[C@H](CCCNC(=N)N)NC(=O)[C@H](CC(=O)O)NC(=O)[C@H](Cc2ccc(O)cc2)NC(=O)[C@@H]2CCCN2C(=O)[C@H](CO)NC(=O)[C@H](CCCNC(=N)N)NC(=O)[C@@H]2CSSC[C@H](NC(=O)[C@@H](N)[C@@H](C)O)C(=O)N[C@@H](CCCNC(=N)N)C(=O)N[C@@H](CO)C(=O)N[C@@H](CO)C(=O)NCC(=O)N[C@@H](CCCNC(=N)N)C(=O)N[C@@H](Cc3ccc(O)cc3)C(=O)N2)CSSC[C@@H](C(=O)N[C@H](C(=O)O)C(C)C)NC(=O)[C@H](C)NC(=O)[C@H](CC(=O)O)NC(=O)[C@H]([C@@H](C)O)NC1=O` to `CC[C@H](C)[C@@H]1NC(=O)[C@H](CCCNC(=N)N)NC(=O)[C@H](CCCNC(=N)N)NC(=O)[C@@H](NC(=O)[C@H](Cc2ccc(O)cc2)NC(=O)[C@H](CCCNC(=N)N)NC(=O)[C@H](CCCNC(=N)N)NC(=O)[C@H](CCCNC(=N)N)NC(=O)[C@H](CCCNC(=N)N)NC(=O)[C@H](CC(=O)O)NC(=O)[C@H](Cc2ccc(O)cc2)NC(=O)[C@@H]2CCCN2C(=O)[C@@H](CO)NC(=O)[C@H](C)NC(=O)[C@@H]2CSSC[C@H](NC(=O)[C@@H](N)[C@@H](C)O)C(=O)N[C@@H](CCCNC(=N)N)C(=O)N[C@@H](CO)C(=O)N[C@@H](CO)C(=O)NCC(=O)N[C@@H](CCCNC(=N)N)C(=O)N[C@@H](Cc3ccc(O)cc3)C(=O)N2)CSSC[C@@H](C(=O)N[C@H](C(=O)O)C(C)C)NC(=O)[C@H](C)NC(=O)[C@H](CC(=O)O)NC(=O)[C@H]([C@@H](C)O)NC1=O`, the IC50 falls from 5490 nM to 1020 nM (5.4-fold). The second is the more potent here.

`CC[C@H](C)[C@@H]1NC(=O)[C@H](CCCNC(=N)N)NC(=O)[C@H](CCCNC(=N)N)NC(=O)[C@@H]2CSSC[C@H](NC(=O)[C@H](C)NC(=O)[C@H](CCCNC(=N)N)NC(=O)CNC(=O)[C@H](CO)NC(=O)[C@H](CO)NC(=O)[C@H](CCCNC(=N)N)NC(=O)[C@@H](NC(=O)[C@@H](N)[C@@H](C)O)CSSC[C@@H](C(=O)N[C@H](C(=O)O)C(C)C)NC(=O)[C@H](C)NC(=O)[C@H](CC(=O)O)NC(=O)[C@H]([C@@H](C)O)NC1=O)C(=O)N[C@@H](CCCNC(=N)N)C(=O)N[C@@H](CO)C(=O)N1CCC[C@H]1C(=O)N[C@@H](Cc1ccc(O)cc1)C(=O)N[C@@H](CC(=O)O)C(=O)N[C@@H](CCCNC(=N)N)C(=O)N[C@@H](CCCNC(=N)N)C(=O)N[C@@H](CCCNC(=N)N)C(=O)N[C@@H](CCCNC(=N)N)C(=O)N[C@@H](Cc1ccc(O)cc1)C(=O)N2` and `CC[C@H](C)[C@@H]1NC(=O)[C@H](CCCNC(=N)N)NC(=O)[C@H](CCCNC(=N)N)NC(=O)[C@@H]2CSSC[C@H](NC(=O)[C@H](Cc3ccc(O)cc3)NC(=O)[C@H](CCCNC(=N)N)NC(=O)CNC(=O)[C@H](CO)NC(=O)[C@H](CO)NC(=O)[C@H](CCCNC(=N)N)NC(=O)[C@@H](NC(=O)[C@@H](N)[C@@H](C)O)CSSC[C@@H](C(=O)N[C@H](C(=O)O)C(C)C)NC(=O)[C@H](C)NC(=O)[C@H](CC(=O)O)NC(=O)[C@H](C)NC1=O)C(=O)N[C@@H](CCCNC(=N)N)C(=O)N[C@@H](CO)C(=O)N1CCC[C@H]1C(=O)N[C@@H](Cc1ccc(O)cc1)C(=O)N[C@@H](CC(=O)O)C(=O)N[C@@H](CCCNC(=N)N)C(=O)N[C@@H](CCCNC(=N)N)C(=O)N[C@@H](CCCNC(=N)N)C(=O)N[C@@H](CCCNC(=N)N)C(=O)N[C@@H](Cc1ccc(O)cc1)C(=O)N2` are within 1.5-fold of each other in IC50: 610 nM for the first, 710 nM for the second.

`CC[C@H](C)[C@@H]1NC(=O)[C@H](CCCNC(=N)N)NC(=O)[C@H](CCCNC(=N)N)NC(=O)[C@@H]2CSSC[C@H](NC(=O)[C@H](Cc3ccc(O)cc3)NC(=O)[C@H](CCCNC(=N)N)NC(=O)CNC(=O)[C@H](CO)NC(=O)[C@H](CO)NC(=O)[C@H](CCCNC(=N)N)NC(=O)[C@@H](NC(=O)[C@@H](N)[C@@H](C)O)CSSC[C@@H](C(=O)N[C@H](C(=O)O)C(C)C)NC(=O)[C@H](C)NC(=O)[C@H](CC(=O)O)NC(=O)[C@H]([C@@H](C)O)NC1=O)C(=O)N[C@@H](CCCNC(=N)N)C(=O)N[C@@H](CO)C(=O)N1CCC[C@H]1C(=O)N[C@@H](Cc1ccc(O)cc1)C(=O)N[C@@H](CC(=O)O)C(=O)N[C@@H](CCCNC(=N)N)C(=O)N[C@@H](CCCNC(=N)N)C(=O)N[C@@H](CCCNC(=N)N)C(=O)N[C@@H](C)C(=O)N[C@@H](Cc1ccc(O)cc1)C(=O)N2` and `CC[C@H](C)[C@@H]1NC(=O)[C@H](CCCNC(=N)N)NC(=O)[C@H](CCCNC(=N)N)NC(=O)[C@@H]2CSSC[C@H](NC(=O)[C@H](Cc3ccc(O)cc3)NC(=O)[C@H](CCCNC(=N)N)NC(=O)CNC(=O)[C@H](CO)NC(=O)[C@H](CO)NC(=O)[C@H](CCCNC(=N)N)NC(=O)[C@@H](NC(=O)[C@@H](N)[C@@H](C)O)CSSC[C@@H](C(=O)N[C@H](C(=O)O)C(C)C)NC(=O)[C@H](C)NC(=O)[C@H](CC(=O)O)NC(=O)[C@H]([C@@H](C)O)NC1=O)C(=O)N[C@@H](CCCNC(=N)N)C(=O)N[C@@H](CO)C(=O)N1CCC[C@H]1C(=O)N[C@@H](Cc1ccc(O)cc1)C(=O)N[C@@H](CC(=O)O)C(=O)N[C@@H](CCCNC(=N)N)C(=O)N[C@@H](CCCNC(=N)N)C(=O)N[C@@H](C)C(=O)N[C@@H](CCCNC(=N)N)C(=O)N[C@@H](Cc1ccc(O)cc1)C(=O)N2` are within 1.5-fold of each other in IC50: 650 nM for the first, 920 nM for the second.

`CC[C@H](C)[C@@H]1NC(=O)[C@H](CCCNC(=N)N)NC(=O)[C@H](CCCNC(=N)N)NC(=O)[C@@H]2CSSC[C@H](NC(=O)[C@H](Cc3ccc(O)cc3)NC(=O)[C@H](CCCNC(=N)N)NC(=O)CNC(=O)[C@H](CO)NC(=O)[C@H](CO)NC(=O)[C@H](CCCNC(=N)N)NC(=O)[C@@H](NC(=O)[C@H](C)N)CSSC[C@@H](C(=O)N[C@H](C(=O)O)C(C)C)NC(=O)[C@H](C)NC(=O)[C@H](C)NC(=O)[C@H]([C@@H](C)O)NC1=O)C(=O)N[C@@H](CCCNC(=N)N)C(=O)N[C@@H](CO)C(=O)N1CCC[C@H]1C(=O)N[C@@H](Cc1ccc(O)cc1)C(=O)N[C@@H](CC(=O)O)C(=O)N[C@@H](CCCNC(=N)N)C(=O)N[C@@H](CCCNC(=N)N)C(=O)N[C@@H](CCCNC(=N)N)C(=O)N[C@@H](CCCNC(=N)N)C(=O)N[C@@H](Cc1ccc(O)cc1)C(=O)N2` and `CC[C@H](C)[C@@H]1NC(=O)[C@H](CCCNC(=N)N)NC(=O)[C@H](CCCNC(=N)N)NC(=O)[C@@H]2CSSC[C@H](NC(=O)[C@H](Cc3ccc(O)cc3)NC(=O)[C@H](CCCNC(=N)N)NC(=O)CNC(=O)[C@H](CO)NC(=O)[C@H](CO)NC(=O)[C@H](CCCNC(=N)N)NC(=O)[C@@H](NC(=O)[C@@H](N)[C@@H](C)O)CSSC[C@@H](C(=O)N[C@@H](C)C(=O)O)NC(=O)[C@H](C)NC(=O)[C@H](CC(=O)O)NC(=O)[C@H]([C@@H](C)O)NC1=O)C(=O)N[C@@H](CCCNC(=N)N)C(=O)N[C@@H](CO)C(=O)N1CCC[C@H]1C(=O)N[C@@H](Cc1ccc(O)cc1)C(=O)N[C@@H](CC(=O)O)C(=O)N[C@@H](CCCNC(=N)N)C(=O)N[C@@H](CCCNC(=N)N)C(=O)N[C@@H](CCCNC(=N)N)C(=O)N[C@@H](CCCNC(=N)N)C(=O)N[C@@H](Cc1ccc(O)cc1)C(=O)N2` are within 1.5-fold of each other in IC50: 1530 nM for the first, 1250 nM for the second.

`CC[C@H](C)[C@@H]1NC(=O)[C@H](CCCNC(=N)N)NC(=O)[C@H](CCCNC(=N)N)NC(=O)[C@@H](NC(=O)[C@H](Cc2ccc(O)cc2)NC(=O)[C@H](CCCNC(=N)N)NC(=O)[C@H](CCCNC(=N)N)NC(=O)[C@H](CCCNC(=N)N)NC(=O)[C@H](CCCNC(=N)N)NC(=O)[C@H](CC(=O)O)NC(=O)[C@H](Cc2ccc(O)cc2)NC(=O)[C@@H]2CCCN2C(=O)[C@H](C)NC(=O)[C@H](CCCNC(=N)N)NC(=O)[C@@H]2CSSC[C@H](NC(=O)[C@@H](N)[C@@H](C)O)C(=O)N[C@@H](CCCNC(=N)N)C(=O)N[C@@H](CO)C(=O)N[C@@H](CO)C(=O)NCC(=O)N[C@@H](CCCNC(=N)N)C(=O)N[C@@H](Cc3ccc(O)cc3)C(=O)N2)CSSC[C@@H](C(=O)N[C@H](C(=O)O)C(C)C)NC(=O)[C@H](C)NC(=O)[C@H](CC(=O)O)NC(=O)[C@H]([C@@H](C)O)NC1=O` and `CC[C@H](C)[C@@H]1NC(=O)[C@H](CCCNC(=N)N)NC(=O)[C@H](CCCNC(=N)N)NC(=O)[C@@H](NC(=O)[C@H](Cc2ccc(O)cc2)NC(=O)[C@H](CCCNC(=N)N)NC(=O)[C@H](CCCNC(=N)N)NC(=O)[C@H](CCCNC(=N)N)NC(=O)[C@H](CCCNC(=N)N)NC(=O)[C@H](C)NC(=O)[C@H](Cc2ccc(O)cc2)NC(=O)[C@@H]2CCCN2C(=O)[C@H](CO)NC(=O)[C@H](CCCNC(=N)N)NC(=O)[C@@H]2CSSC[C@H](NC(=O)[C@@H](N)[C@@H](C)O)C(=O)N[C@@H](CCCNC(=N)N)C(=O)N[C@@H](CO)C(=O)N[C@@H](CO)C(=O)NCC(=O)N[C@@H](CCCNC(=N)N)C(=O)N[C@@H](Cc3ccc(O)cc3)C(=O)N2)CSSC[C@@H](C(=O)N[C@H](C(=O)O)C(C)C)NC(=O)[C@H](C)NC(=O)[C@H](CC(=O)O)NC(=O)[C@H]([C@@H](C)O)NC1=O` are within 1.5-fold of each other in IC50: 1100 nM for the first, 800 nM for the second.

`CC[C@H](C)[C@@H]1NC(=O)[C@H](CCCNC(=N)N)NC(=O)[C@H](CCCNC(=N)N)NC(=O)[C@@H](NC(=O)[C@H](Cc2ccc(O)cc2)NC(=O)[C@H](CCCNC(=N)N)NC(=O)[C@H](CCCNC(=N)N)NC(=O)[C@H](CCCNC(=N)N)NC(=O)[C@H](CCCNC(=N)N)NC(=O)[C@H](CC(=O)O)NC(=O)[C@H](Cc2ccc(O)cc2)NC(=O)[C@@H]2CCCN2C(=O)[C@H](CO)NC(=O)[C@H](CCCNC(=N)N)NC(=O)[C@@H]2CSSC[C@H](NC(=O)[C@@H](N)[C@@H](C)O)C(=O)N[C@@H](CCCNC(=N)N)C(=O)N[C@@H](CO)C(=O)N[C@@H](C)C(=O)NCC(=O)N[C@@H](CCCNC(=N)N)C(=O)N[C@@H](Cc3ccc(O)cc3)C(=O)N2)CSSC[C@@H](C(=O)N[C@H](C(=O)O)C(C)C)NC(=O)[C@H](C)NC(=O)[C@H](CC(=O)O)NC(=O)[C@H]([C@@H](C)O)NC1=O` gave an IC50 of 960 nM.

Source: ChEMBL document CHEMBL5346973 (J Med Chem, 2023)
